Tests used:
SLO [1] = target: T1, SLO (Streptococcus pyogenes serotype M1, UniProt P0C0I3, E324D/N47S/T59I/T66M); settings: 0.5 μg/ml SLO; 100 μM peptide; 18 h
SLO [2] = target: T1, SLO; settings: 100 μM peptide; 1 μg/ml purified SLO
SLO [3] = target: T1, SLO; settings: peptides immobilized on plates; increasing doses of purified SLO

Molecule	cell death of macrophages induced by SLO (LDH release) (SLO [1])	inhibition of SLO-induced hemolysis (SLO [2]) [%]	binding to SLO (ELISA) (SLO [3])
LVGNIEQNEHSVI	no significant effect	–	–
C[C@H](NC(=O)[C@H](Cc1c[nH]c2ccccc12)NC(=O)[C@H](CC(N)=O)NC(=O)[C@H](CCC(=O)O)NC(=O)[C@@H](N)Cc1ccc(O)cc1)C(=O)N[C@@H](Cc1ccc(O)cc1)C(=O)NCC(=O)N[C@@H](CCC(=O)O)C(=O)N1CCC[C@H]1C(=O)N[C@@H](CC(N)=O)C(=O)N[C@@H](CC(N)=O)C(=O)N[C@@H](Cc1ccc(O)cc1)C(=O)N[C@@H](CCC(N)=O)C(=O)O	significantly reduced cell death	60	bound dose-dependently

— patent US20230365647A1, “MANNOSE RECEPTOR-DERIVED PEPTIDES FOR NEUTRALIZING PORE-FORMING TOXINS FOR THERAPEUTIC USES” (priority 2020, published 2023)
